Measured values from several laboratories, pooled; numbers as filed in NIAID ChemDB.

All rows: tests in culture; species: Candida albicans

a–b is a range or a potency band. Rows are shuffled and stem from different studies. A number after MIC or MFC names an inhibition level or a share of isolates. An empty or dashed field is not shown.

SMILES | strain | read by | read-out | result
O=C(Nc1c(F)cccc1F)OCCCN1CCN(c2nc3ccccc3s2)CC1 | CY3003 | - | MIC | 0.83 µg/mL
O[C@](Cn1cncn1)(Cn1cnc(/C=C/c2ccc(OCC(F)(F)C(F)F)cc2)n1)c1ccc(F)cc1F | 50 strains (fluconazole-resistant) | - | MIC90 | 2 µg/mL
O=C(Cc1ccc([N+](=O)[O-])cc1)Nc1ccc2oc(-c3ccccc3)nc2c1 | RSKK 628 | - | MIC | 25 µg/mL
CCc1c(Cc2ccc(OC)c(OC)c2)nc(SCCN2CCOCC2)[nH]c1=O | ATCC 10231 | - | MIC | 50 µg/mL
NC=Nc1cccc(SCc2ccc(Cl)cc2)c1 | SC5314 | - | MFC | 50 µM
CCCCCCCCCC(=O)NC(CCCN)C(N)=O | ATCC 24433 | broth dilution | MIC | >100 µg/mL
CC(=O)N1CCN(c2ccc(OC[C@H]3CO[C@](Cn4ccnc4)(c4ccc(Cl)cc4Cl)O3)cc2)CC1 | 10 isolates azole-resistant | - | MIC90 | 0.04 µg/mL
CCCCN(CCCOP(=O)([O-])OCC[N+](C)(C)C)c1c([N+](=O)[O-])cc(C(F)(F)F)cc1[N+](=O)[O-] | Clinical isolate 44A | broth dilution | MFC | >16 µg/mL
OC(Cn1cncn1)(Cn1cncn1)c1ccc(F)cc1F | ATCC 90028 | - | MIC | 0.03 µg/mL
C[C@H]1[C@H](O)[C@@H](C)/C=C/C=C/C=C/C=C/C=C/C=C/C=C/[C@H](O[C@@H]2O[C@H](C)[C@@H](O)[C@H](N)[C@@H]2O)C[C@@H]2O[C@](O)(C[C@@H](O)C[C@@H](O)CC[C@H](O)[C@@H](O)C[C@@H](O)CC(=O)O[C@H]1C)C[C@H](O)[C@H]2C(=O)O | 97 isolates | - | MIC90 | 1 µg/mL
C[C@H]1[C@H](O)[C@@H](C)/C=C/C=C/C=C/C=C/C=C/C=C/C=C/[C@H](O[C@@H]2O[C@H](C)[C@@H](O)[C@H](N)[C@@H]2O)C[C@@H]2O[C@](O)(C[C@@H](O)C[C@@H](O)CC[C@H](O)[C@@H](O)C[C@@H](O)CC(=O)O[C@H]1C)C[C@H](O)[C@H]2C(=O)O | 10 isolates azole-resistant | - | MIC90 | 0.2 µg/mL
CCCCCCCCCCCCCC(=O)NC(CCCN)C(=O)NC(CCCN)C(N)=O | ATCC 24433 | broth dilution | MIC | 25 µg/mL
NC=Nc1ccc(SCc2ccc(Cl)cc2)cc1 | SC5314 | - | MFC | 50 µM
CCCC[C@@H](C)/C=C(C)/C=C(\C)C(=O)N/C(=C/[C@@](C)(O)/C=C/C=C/C=C/C(=O)NC1=C(O)CCC1=O)C(=O)[C@@H]1CO1 | 4 | broth dilution | MIC | 25 µM
CCCCCCCCCC(=O)NC(CCCN)C(=O)NC(CCCN)C(=O)NC(CCCN)C(=O)NC(CCCN)C(N)=O | ATCC 24433 | broth dilution | MIC | >100 µg/mL
Clc1ccc(C(Cn2ccnc2)OCc2csc3c(Cl)cccc23)c(Cl)c1 | 15 strains | - | MIC | 2 µg/mL
C=CCc1ccc(OC)c(OC)c1 | 3081 | turbidity | MIC90 | 345 µg/mL
C[C@H]1[C@H](O)[C@@H](C)/C=C/C=C/C=C/C=C/C=C/C=C/C=C/[C@H](O[C@@H]2O[C@H](C)[C@@H](O)[C@H](N)[C@@H]2O)C[C@@H]2O[C@](O)(C[C@@H](O)C[C@@H](O)CC[C@H](O)[C@@H](O)C[C@@H](O)CC(=O)O[C@H]1C)C[C@H](O)[C@H]2C(=O)O | n. 1r | broth dilution | MIC100 | 2 µM
Cn1cc(NC(=O)c2cc(NC(=O)c3cc(NC(=O)c4nsc(N5CCCCC5)c4Cl)cn3C)cn2C)cc1C(=O)NCCCCN | 38247 | - | MIC | 4 µg/mL
Clc1ccccc1C(c1ccccc1)(c1ccccc1)n1ccnc1 | ATCC 10231 | - | MIC | 6 µg/mL
COC(=O)c1c(C)oc2cc(C(=O)C(Br)Br)c(O)c(Br)c12 | ATCC 10231 | - | MIC | 100 µg/mL
C[N+](C)(C)CCOP(=O)([O-])OCCCCCC1CCCCCCCCCCCCCC1 | Clinical isolate 44A | broth dilution | MFC | >16 µg/mL
Nc1ccc(Cl)cc1C(=O)Nc1ccc(F)cc1 | ATCC 44859 | - | MIC | 500 µM
O[C@](Cn1cncn1)(Cn1cnc(/C=C/c2ccc(OCC(F)(F)C(F)F)cc2)n1)c1ccc(F)cc1F | Isolate 015-13 | - | MIC | 0.12 µg/mL
OC(Cn1cncn1)(Cn1cncn1)c1ccc(F)cc1F | 9760-H85 | - | MIC | 12.5 µg/mL
C[C@H]1N(C(=O)c2ccc(C(F)(F)F)cc2)C[C@@H](O)O[C@@]1(Cn1cncn1)c1ccc(F)cc1F | Isolate 1 | - | MIC | 16 µg/mL
Cc1c(Cc2ccc(Cl)cc2)[nH]c(=S)[nH]c1=O | ATCC 10231 | - | MIC | 100 µg/mL
CCCCN(CCCCCCOP(=O)([O-])OCC[N+](C)(C)C)c1c([N+](=O)[O-])cc(C(F)(F)F)cc1[N+](=O)[O-] | ATCC 10231 | broth dilution | MFC | >16 µg/mL
C[C@H]1[C@H](O)[C@@H](C)/C=C/C=C/C=C/C=C/C=C/C=C/C=C/[C@H](O[C@@H]2O[C@H](C)[C@@H](O)[C@H](N)[C@@H]2O)C[C@@H]2O[C@](O)(C[C@@H](O)C[C@@H](O)CC[C@H](O)[C@@H](O)C[C@@H](O)CC(=O)O[C@H]1C)C[C@H](O)[C@H]2C(=O)O | Clinical isolate | broth dilution | MIC100 | <0.3 µg/mL
N#CC(CC(=O)O)C(N)C(=O)O | 83-2-14 | - | MIC | 0.8 µg/mL
CCc1c(Cc2ccc(Cl)cc2)[nH]c(=S)[nH]c1=O | ATCC 10231 | - | MIC | 25 µg/mL
CC1=C2[C@@H](OC(=O)/C=C/c3ccccc3)[C@H](C(C)C)CC[C@]2(C)[C@@H](O)CC1=O | ATCC 10231 | - | MIC | 16 µg/mL
O=C(Cc1ccc(Cl)cc1)Nc1ccc2oc(-c3ccccc3)nc2c1 | RSKK 628 | - | MIC | 50 µg/mL
CCCCCCCC(=O)NC(CCCN)C(=O)NC(CCCN)C(=O)NC(CCCN)C(N)=O | ATCC 24433 | broth dilution | MIC | >100 µg/mL
CCc1ccc(-c2nc3cc(NC(=O)c4ccc(C)cc4)ccc3o2)cc1 | RSKK 628 | - | MIC | 50 µg/mL
CC1Oc2ccccc2/C(=N/Nc2ccccc2)C1n1ccnc1 | PTCC 5027 | agar | MIC | 8 µg/mL
C[C@H]1[C@H](O)[C@@H](C)/C=C/C=C/C=C/C=C/C=C/C=C/C=C/[C@H](O[C@@H]2O[C@H](C)[C@@H](O)[C@H](N)[C@@H]2O)C[C@@H]2O[C@](O)(C[C@@H](O)C[C@@H](O)CC[C@H](O)[C@@H](O)C[C@@H](O)CC(=O)O[C@H]1C)C[C@H](O)[C@H]2C(=O)O | - | broth dilution | MFC | >50 µg/mL
O=C(Nc1ccc2oc(-c3ccccc3)nc2c1)c1ccc(Cl)cc1 | RSKK 628 | - | MIC | 50 µg/mL
CC[C@@H]([C@H](C)O)n1ncn(-c2ccc(N3CCN(c4ccc(OC[C@@H]5CO[C@@](Cn6cncn6)(c6ccc(F)cc6F)C5)cc4)CC3)cc2)c1=O | 19 strains (fluconazole-susceptible) | - | MIC90 | 0.25 µg/mL
c1ccc(N/N=C2/c3ccccc3OCC2n2cncn2)cc1 | PTCC 5027 | agar | MIC | 16 µg/mL
C[C@H]1[C@H](O)[C@@H](C)/C=C/C=C/C=C/C=C/C=C/C=C/C=C/[C@H](O[C@@H]2O[C@H](C)[C@@H](O)[C@H](N)[C@@H]2O)C[C@@H]2O[C@](O)(C[C@@H](O)C[C@@H](O)CC[C@H](O)[C@@H](O)C[C@@H](O)CC(=O)O[C@H]1C)C[C@H](O)[C@H]2C(=O)O | ATCC 18804 and ATCC 28815 26555 24433 64544 64550 | - | MIC | 0.39–1.56 µg/mL
CCC(C)n1ncn(-c2ccc(N3CCN(c4ccc(OC[C@H]5CO[C@](Cn6cncn6)(c6ccc(Cl)cc6Cl)O5)cc4)CC3)cc2)c1=O | E81022 | - | MIC | 0.05 µg/mL
Cn1cc(NC(=O)c2cc(NC(=O)c3cc(NC(=O)c4nsc(NCCN)c4Cl)cn3C)cn2C)cc1C(=O)NCCC1=NCCN1 | 38247 | - | MIC | >32 µg/mL
CCN(CC)C(=O)COc1cc2c(O)c3c(O)c(C)c4c(c13)C(=O)[C@@](C)(O/C=C/[C@H](OC)[C@@H](C)[C@@H](OC(C)=O)[C@H](C)[C@H](O)[C@H](C)[C@@H](O)[C@@H](C)/C=C/C=C(/C)C(=O)N2)O4 | ATCC 10231 | - | MIC | >100 µg/mL
CCc1ccc(-c2nc3cc(NC(=O)c4ccccc4)ccc3o2)cc1 | RSKK 628 | - | MIC | 50 µg/mL
CN(C)CCCNC(=O)c1cc(NC(=O)c2cc(NC(=O)c3cc(NC(=O)c4nsc(NCc5ccncc5)c4Cl)cn3C)cn2C)cn1C | 38247 | - | MIC | 64 µg/mL
CCCCCCCCCCCCCC(=O)NC(CCCN)C(=O)NC(CCCN)C(=O)NC(CCCN)C(N)=O | ATCC 24433 | broth dilution | MIC | 6.25 µg/mL
CCc1c(Cc2ccc(Cl)cc2)nc(SCCN2CCOCC2)[nH]c1=O | ATCC 10231 | - | MIC | 100 µg/mL
C[C@H]1[C@H](O)[C@@H](C)/C=C/C=C/C=C/C=C/C=C/C=C/C=C/[C@H](O[C@@H]2O[C@H](C)[C@@H](O)[C@H](N)[C@@H]2O)C[C@@H]2O[C@](O)(C[C@@H](O)C[C@@H](O)CC[C@H](O)[C@@H](O)C[C@@H](O)CC(=O)O[C@H]1C)C[C@H](O)[C@H]2C(=O)O | 63 isolates | - | MIC90 | 1 µg/mL
CCCCCCCCCCCC(=O)NC(CCCN)C(=O)NC(CCCN)C(=O)NC(CCCN)C(=O)NC(CCCN)C(=O)NC(CCCN)C(N)=O | ATCC 24433 | broth dilution | MIC | 12.5 µg/mL
CCCCCCCCCCCCC(OC)C(=O)O | ATCC 14053 | - | MIC | 110 µM
CN(C)CCCCNC(=O)c1cc(NC(=O)c2cc(NC(=O)c3cc(NC(=O)c4nsc(NCCN5CCNCC5)c4Cl)cn3C)cn2C)cn1C | 38247 | - | MIC | 4 µg/mL

A second listing of 7 rows from above:

SMILES	strain	read by	read-out	result
CCc1c(Cc2ccc(OC)c(OC)c2)nc(SCCN2CCOCC2)[nH]c1=O	ATCC 10231	-	MIC	50 µg/mL
Nc1ccc(Cl)cc1C(=O)Nc1ccc(F)cc1	ATCC 44859	-	MIC	500 µM
O[C@](Cn1cncn1)(Cn1cnc(/C=C/c2ccc(OCC(F)(F)C(F)F)cc2)n1)c1ccc(F)cc1F	50 strains (fluconazole-resistant)	-	MIC90	2 µg/mL
CCCCCCCC(=O)NC(CCCN)C(=O)NC(CCCN)C(=O)NC(CCCN)C(N)=O	ATCC 24433	broth dilution	MIC	>100 µg/mL
Cn1cc(NC(=O)c2cc(NC(=O)c3cc(NC(=O)c4nsc(N5CCCCC5)c4Cl)cn3C)cn2C)cc1C(=O)NCCCCN	38247	-	MIC	4 µg/mL
C[C@H]1[C@H](O)[C@@H](C)/C=C/C=C/C=C/C=C/C=C/C=C/C=C/[C@H](O[C@@H]2O[C@H](C)[C@@H](O)[C@H](N)[C@@H]2O)C[C@@H]2O[C@](O)(C[C@@H](O)C[C@@H](O)CC[C@H](O)[C@@H](O)C[C@@H](O)CC(=O)O[C@H]1C)C[C@H](O)[C@H]2C(=O)O	ATCC 18804 and ATCC 28815 26555 24433 64544 64550	-	MIC	0.39–1.56 µg/mL
CCc1ccc(-c2nc3cc(NC(=O)c4ccccc4)ccc3o2)cc1	RSKK 628	-	MIC	50 µg/mL